Pooled drug test results. Numbers come from NIAID ChemDB, via PubChem.

Shared fields: growth or infection tests

Lines come from different laboratories, so protocols vary. An empty or dashed field is not shown. ECn is the concentration giving n% inhibition of infection, replication or growth. Percent inhibition refers to the dose given; in toxicity tests it is the harm to the cells. Two numbers with a dash give a range or band.

structure,cells,read-out,strain or isolate,organism,tested at,value
Nc1nccc2c1ncn2[C@@H]1C[C@H](CO)[C@@H](O)[C@H]1O,VERO,EC50,Isolate Brazil Garcia,Variola virus,,1.6 µg/mL
CC(C)O[C@@H]1[C@H](OC(C)C)[C@@H](COS(=O)(=O)NC(=O)O[C@H]2O[C@H](COC(=O)c3ccccc3)[C@H](OC(=O)c3ccccc3)[C@H](OC(=O)c3ccccc3)[C@H]2OC(=O)c2ccccc2)O[C@H]1n1ccc(=O)[nH]c1=O,VERO,EC50,,African swine fever virus,,25 µg/mL
N=c1ncn(CC2CCCCC2)c2nc[nH]c12,BSC-1,inhibition,,Vaccinia virus,50 µg/mL,7%
CCN(CC)c1cc(-c2ccc(OC)cc2OC)on1,VERO,EC50,,African swine fever virus,,>362 µM
CC(N)c1ccc2c(c1)Sc1ccccc1O2,BSC-1,inhibition,TYPE 3,Poliovirus,2 µg/mL,23%
CC(C)O[C@@H]1[C@H](OC(C)C)[C@@H](COS(=O)(=O)NC(=O)O[C@H]2C[C@@H](OC(=O)c3ccccc3)[C@H](OC(=O)c3ccccc3)[C@@H](COC(=O)c3ccccc3)O2)O[C@H]1n1ccc(=O)[nH]c1=O,VERO,EC50,,African swine fever virus,,50 µg/mL
N=c1ncn(Cc2ccc(Cl)cc2Cl)c2nc[nH]c12,BSC-1,inhibition,,Vaccinia virus,12 µg/mL,0%
CC(OC(=O)Nc1ccc2ccccc2c1)c1ccc2c(c1)Sc1ccccc1O2,BSC-1,inhibition,TYPE 3,Poliovirus,0.4 µg/mL,20%
CC(C)O[C@@H]1[C@H](OC(C)C)[C@@H](COS(=O)(=O)NC(=O)O[C@@H]2C[C@@H](OC(=O)c3ccccc3)C[C@@H](COC(=O)c3ccccc3)O2)O[C@H]1n1ccc(=O)[nH]c1=O,VERO,EC50,,African swine fever virus,,50 µg/mL
CC(=O)c1ccc2c(c1)Cc1ccccc1O2,BSC-1,inhibition,TYPE 3,Poliovirus,0.4 µg/mL,50%
CCN(CC)c1noc(-c2ccc(O)cc2O)c1Cc1c(N(CC)CC)noc1-c1ccc(OC)cc1O,VERO,EC50,,African swine fever virus,,>3.5 µM
CCC1COC(c2ccc(OCCCCCCC(=O)c3ccc(C)s3)cc2)=N1,VERO,EC50,TYPE 2,Poliovirus,,>26.05 µM
Brc1ccc(C2=Cc3cc(Br)ccc3OC2)cc1,HEP-2,inhibition,IA (TYPE 2),Poliovirus,10 µM,47%
CCCCCCCCCCCCCCCC(=O)OC[C@H]1O[C@H](OC(=O)NS(=O)(=O)OC[C@H]2O[C@@H](n3ccc(=O)[nH]c3=O)[C@H](OC(C)C)[C@@H]2OC(C)C)[C@H](OC(=O)CCCCCCCCCCCCCCC)[C@@H](OC(=O)CCCCCCCCCCCCCCC)[C@@H]1OC(=O)CCCCCCCCCCCCCCC,VERO,EC50,,African swine fever virus,,25 µg/mL
Nc1ccn(C[C@@H](CO)OCP(=O)(O)O)c(=O)n1,VERO,EC50,Isolate ETH17,Variola virus,,11 µg/mL
COC(=O)c1ncn([C@@H]2C[C@@H](Oc3ccc(C)cc3)[C@H](COc3ccc(C)cc3)O2)c1C(=O)OC,,EC50,,Lassa virus,,2 µg/mL
Clc1ccc2c(c1)C=C(c1ccc(Br)cc1)CO2,HEP-2,inhibition,IB (TYPE 2),Poliovirus,10 µM,29%
N=C(N)c1ncn([C@@H]2O[C@H](CO)[C@@H](O)[C@H]2O)n1,,EC50,,Variola virus,,1–100 µM
CCn1cnc(=N)c2[nH]cnc21,BSC-1,inhibition,,Vaccinia virus,100 µg/mL,0%
CC(=O)N[C@H]1[C@@H](OC(=O)NS(=O)(=O)OC[C@H]2O[C@@H](n3ccc(=O)[nH]c3=O)[C@H](OC(C)C)[C@@H]2OC(C)C)O[C@H](COC(=O)c2ccccc2)[C@@H](OC(=O)c2ccccc2)[C@@H]1OC(=O)c1ccccc1,VERO,EC50,,African swine fever virus,,>100 µg/mL
Cn1cc(NC(=O)c2cc(NC(=O)c3cc(NC=O)cn3C)cn2C)cc1C(=O)NCCC(=N)N,BSC-1,inhibition,Noguchi,Vaccinia virus,100 µg/mL,100%
CC(C)(C)C(=O)OCOP(=O)(COCCn1cnc2c(N)ncnc21)OCOC(=O)C(C)(C)C,VERO,EC50,Isolate Bangladesh,Variola virus,,84.2 µg/mL
Nc1nc(=O)n([C@@H]2C=C(CO)[C@@H](O)[C@H]2O)cc1Br,,EC50,Bangladesh 1975,Variola virus,,100 µg/mL
CC(O)c1ccc2c(c1)Sc1ccccc1O2,BSC-1,inhibition,TYPE 3,Poliovirus,0.4 µg/mL,85%
CCOc1ccc(-c2cc(N(CC)CC)no2)c(O)c1,VERO,EC50,,African swine fever virus,,>362 µM
CCCCn1cnc(=N)c2[nH]cnc21,BSC-1,inhibition,,Vaccinia virus,12 µg/mL,0%
CCC(=O)c1ccc2c(c1)Sc1ccccc1O2,BSC-1,inhibition,TYPE 3,Poliovirus,2 µg/mL,62%
CCOC(=O)c1ccc(OCCCCC(=O)c2ccc(C)s2)cc1,VERO,EC50,TYPE 1,Poliovirus,,>26.72 µM
CC(=O)c1ccc2c(c1)[S@@](=O)c1ccccc1O2,BSC-1,inhibition,TYPE 3,Poliovirus,2 µg/mL,20%
Cn1cc(NC(=O)c2cc(NC(=O)CN=C(N)N)cn2C)c(C(=O)NCCC(=N)N)c1,BSC-1,inhibition,Noguchi,Vaccinia virus,25 µg/mL,32%
Nc1nc(=O)n([C@@H]2C=C(CO)[C@@H](O)[C@H]2O)cc1Cl,,EC50,7124,Variola virus,,>100 µg/mL
CCN(CC)c1cc(-c2ccc(OC)cc2O)on1,VERO,EC50,,African swine fever virus,,>381 µM
CC(=O)N[C@H]1[C@H]([C@H](O)[C@H](O)CO)OC(C(=O)O)=C[C@@H]1N=C(N)N,MDCK,EC50,H7N3 A/FPV/ENG/1/63,Influenza A virus,,≥1 µM
Clc1ccc(C2=Cc3cc(Cl)ccc3OC2)cc1,HEP-2,inhibition,TYPE 2,Poliovirus,10 µM,42%
Nc1ccn([C@@H]2C=C(CO)[C@@H](O)[C@H]2O)c(=O)n1,VERO,EC50,7124,Variola virus,,<0.05 µg/mL
Cc1ccc(C(=O)CCCCOc2ccc(C3=NC(C)CO3)cc2)s1,VERO,EC50,TYPE 2,Poliovirus,,2.13 µM
CC(=O)c1ccc(Oc2ccccc2)cc1,BSC-1,inhibition,TYPE 3,Poliovirus,10 µg/mL,100%
O=C(NS(=O)(=O)OC[C@H]1O[C@@H](n2ccc(=O)[nH]c2=O)[C@H](O)[C@@H]1O)O[C@H]1O[C@H](COC(=O)c2ccccc2)[C@@H](OC(=O)c2ccccc2)[C@H](OC(=O)c2ccccc2)[C@@H]1OC(=O)c1ccccc1,VERO,EC50,,African swine fever virus,,25 µg/mL
Clc1ccc(C2CCc3ccccc3O2)c(Cl)c1,HEP-2,EC50,SABIN (TYPE 2),Poliovirus,,>10 µM
CC(=O)c1ccc2c(c1)Sc1ccccc1S2,BSC-1,inhibition,TYPE 3,Poliovirus,10 µg/mL,100%
CC(=O)O[C@H]1C[C@H](n2cc(C)c(=O)[nH]c2=O)O[C@@H]1COS(=O)(=O)NC(=O)O[C@H]1O[C@H](COC(=O)c2ccccc2)[C@@H](OC(=O)c2ccccc2)[C@H](OC(=O)c2ccccc2)[C@H]1OC(=O)c1ccccc1,VERO,EC50,,African swine fever virus,,10 µg/mL
Cc1ccc(C(=O)CCCCOc2ccc(C3=N[C@@H](C)CO3)cc2)s1,VERO,EC50,TYPE 1,Poliovirus,,>28.01 µM
CC(=O)OC(C)c1ccc2c(c1)Sc1ccccc1O2,BSC-1,inhibition,TYPE 3,Poliovirus,2 µg/mL,100%

Again, the opening 5 rows:

structure | cells | read-out | strain or isolate | organism | tested at | value
Nc1nccc2c1ncn2[C@@H]1C[C@H](CO)[C@@H](O)[C@H]1O | VERO | EC50 | Isolate Brazil Garcia | Variola virus |  | 1.6 µg/mL
CC(C)O[C@@H]1[C@H](OC(C)C)[C@@H](COS(=O)(=O)NC(=O)O[C@H]2O[C@H](COC(=O)c3ccccc3)[C@H](OC(=O)c3ccccc3)[C@H](OC(=O)c3ccccc3)[C@H]2OC(=O)c2ccccc2)O[C@H]1n1ccc(=O)[nH]c1=O | VERO | EC50 |  | African swine fever virus |  | 25 µg/mL
N=c1ncn(CC2CCCCC2)c2nc[nH]c12 | BSC-1 | inhibition |  | Vaccinia virus | 50 µg/mL | 7%
CCN(CC)c1cc(-c2ccc(OC)cc2OC)on1 | VERO | EC50 |  | African swine fever virus |  | >362 µM
CC(N)c1ccc2c(c1)Sc1ccccc1O2 | BSC-1 | inhibition | TYPE 3 | Poliovirus | 2 µg/mL | 23%